Measured values as given in paper PMC7602700.
The exact form of at least one protein or probe is not confirmed. Where cells or extracts were used, other partners may take part.

Test system: ParB (pESBL, Hp7)
Test: EMSA
Conditions: salmon sperm DNA 100 ug/mL, 50 mM Tris-HCl pH 7.5, 100 mM NaCl, 250 uM DTT, 15% glycerol, 1 mM EDTA, 100 ug/mL salmon sperm DNA, 4 pmol probe in 10 uL, 15 min at 24 C, 5% PAGE in TGE at 4 C, protein in a lysate after overexpression, label: 5'-Cy3 on strand 1

## TTGAGATAACAAGATAACAAGATAACAAGATAACACCTTGTTATCTTGTTATCTTGTTATCTTGTCATCGAC (double strand) [8-BS]
Eight discrete complexes
  binding result: binds

## CCATAATATTGTTATCTTGTTATCTTGTTATCTTGTTATCTTGTTATCTTGTTGTCTTGTTATCTTAATTAA (double strand) [7-DR]
Seven discrete complexes
  binding result: binds
